Reference: patent publication US20100004187A1 (priority 2008, published 2010)

Columns and labels:
Francisella philomiragia = conditions: CC50 BHK cells over average of the two IC50s
[1] = tested on: Francisella tularensis subspecies Novicida; conditions: CC50 BHK cells over average of the two IC50s

Q: For hexamminecobalt (III) chloride, which in vitro selectivity ratio CC50/IC50 (Francisella philomiragia) is on record?
A: 88

Q: And the in vitro selectivity ratio CC50/IC50 [1]?
A: 145
